Compound potency records, mixed from different reports. Data source: NIAID ChemDB in PubChem.

Common to all: enzyme or target tests; agent: Hepatitis C virus; protein: NS5B polymerase; measure: IC50

ICn is the concentration giving n% inhibition. Rows are shuffled and stem from different studies. Two numbers with a dash give a range or band.

SMILES	value
O=C(O)c1cnn2c(C3CCCCC3)c(-c3ccoc3)cnc12	1–10 µM
O=C1NC(=O)/C(=C\c2ccc(Cl)cc2)S1	>30 µM
CC(C)CCn1c(=O)c(C2=NCCS(=O)(=O)N2)c(O)c2ccccc21	0.08 µM
O=C1/C(=C\c2c(F)cccc2Cl)SC(=S)N1NS(=O)(=O)c1ccccc1	≤30 µM
C[C@@]1(O)[C@H](O)[C@@H](CO)O[C@H]1n1cnc2c(=O)[nH]c(N)nc21	0.13 µM
O=C1/C(=C/c2ccc(Br)c(Br)c2)SC(=S)N1NS(=O)(=O)c1ccc(Br)cc1	≤30 µM
Cc1ccc(C(=O)N2CCOCC2)c(Nc2ccc3cn[nH]c3c2)n1	<0.1 µg/mL
O=C(N[C@@H](Cc1cc2ccccc2[nH]1)C(=O)O)c1ccc2c(c1)nc(-c1ccoc1)n2C1CCCCC1	1–5 µM
COc1ccc(/C=C2/SC(=S)N(N)C2=O)cc1	>30 µM
O=C(O)COc1ccc2[nH]cc(CC(NC(=O)c3ccc4c(c3)nc(-c3ccoc3)n4C3CCCCC3)C(=O)O)c2c1	<1 µM
COc1ccc(CCNC(=O)c2ccc3c(c2)nc(-c2ccccn2)n3C2CCCCC2)cc1OC	12 µM
O=C(O)COc1ccc(C[C@@H](NC(=O)Cc2ccc3c(c2)nc(-c2ccccn2)n3C2CCCCC2)C(=O)O)cc1	5–10 µM
O=C(O)c1cc2nc(-c3ccoc3)c(C3CCCCC3)c(=O)n2[nH]1	<1 µM
CN(C)CCCNC(=O)COc1ccc(-c2nc3cc(C(=O)O)ccc3n2C2CCCCC2)cc1	10–25 µM
O=C1/C(=C\c2ccc(Cl)cc2F)SC(=S)N1NS(=O)(=O)c1ccccc1	≤30 µM
CC1CCC(C(=O)N(c2cc(-c3ccccc3)sc2C(=O)O)C(C)C)CC1	1.5 µM
COc1ccc(/C=C2/SC(=S)N(Cc3ccccc3)C2=O)cc1	>30 µM
COC(=O)[C@H](Cc1c[nH]c2ccc(O)cc12)NC(=O)c1ccc2c(c1)nc(-c1ccccn1)n2C1CCCCC1	<1 µM

For reference, 2 entries again:

SMILES | value
O=C(N[C@@H](Cc1cc2ccccc2[nH]1)C(=O)O)c1ccc2c(c1)nc(-c1ccoc1)n2C1CCCCC1 | 1–5 µM
Cc1ccc(C(=O)N2CCOCC2)c(Nc2ccc3cn[nH]c3c2)n1 | <0.1 µg/mL